Measurements from the supplement of paper PMC12637763.
Numbering of substitutions follows the chain as printed. Some of the results follow. Env chains of viruses from a treatment-interruption trial, translated from the printed DNA. IC50 / IC80 of two broadly neutralizing antibodies; lower = more sensitive virus; >50 µg/ml means not reached and <0.001 µg/ml is below the lowest dose. No active / inactive call.

B1: HIV-1 Env, reservoir clone (protein)
chain: MKVRVMQRNWQHLGRWGLLFLGLLICCNATEQLWVTVYYGVPVWKEATTTLFCASDAKGYEKEAHNVWATHACVPTDPNPQEIPLVNVTENFNMWKNNMVEQMQTDIISLWDQSLKPCVKLTPLCVTLNCNNNIKWANGNNSTNPDMKNCSFNMTTEVRDKRLKVSALFYKIDLTPLNETSGEYRLINCNTSTIKQACPKVSWDPIPIHYCAPAGYAILKCRDKNFNGTGPCNNVSTVQCTHGIKPVVSTQLLLNGSLAEEDIVIRTQNISDNAKTIIVSLNESVTINCTRPGNNTRKSIHIGPGQVFYANNDIIGDIRKAFCTLNGTQWNKTLDRVKAKLRSLFNKTTIIFAQPSGGDLEVTMHSFNCRGEFFYCNTSGLFNNNTFNNTGGNENITLPCRIKQIINMWQGVGQAMYTAPIAGNITCVSNITGLLLIRDGGPDNDNETFRPGGGDMRDNWRSELYKYKVVEIEPLGIAPTRAKRQVVRRERRAVGIGAMFLGFLGAAGSTMGAASIALTVQARQLLSGIVQQQNNLLRAIEAQQHLLQLTVWGIKQLQARVLAVERYLKDQQLLGVWGCSGKLICTTSVPWNSSWSNKSQQEIWDNMTWMDWEREISNYSQTIYKLLEESQYQQDKNEQELLALDKWASLWNWFDISNWLWYIRIFIMIVGGLIGLRIVFAVLAIVNRVRKGYSPLSLQTLIPNSRGPDRPEGIEEGGGEQDRDRSVRLVNGFLALVWDDLRNLCLFSYRLLRDFILIAARTVDRGLRGGWKALKYLWNLTQYWSRELKDSAISLYNSIAIAVAEGTDRIIEALQIIVRGVLHIPRRIRQGLERALL
B2: HIV-1 Env, reservoir clone (protein)
chain: MKAKETRKNYQHLWRWGIMLLGMLMICSAASQLWVTVYYGVPVWKEATTTLFCASDAKAYDTEVHNVWATHACVPTDPNPQEVVLGNVTEDFNMWKNNMVEQMHEDIISLWDQSLKPCVKITPLCVTLNCTEYSNATSTTWGQMEKGEIKNCSFNVTTNIKNKMQKEYALFYKLDVVPIGDNSTNYRLIKCNTSAITQACPKVSFQPIPIHYCAPAGFAILKCNNKTFNGLGPCTNVSTVQCTHGIRPVVSTQLLLNGSLAEEEIVIRSENFSDNAKNIIVHLNASIEINCTRPNNNTRKSITIGPGRAFYATGDVIGDIRQAHCNISGEKWNEALKQIAIKLREQFGHNKTIVFNQSSGGDPEIVAHSVNCGGEFFYCNSTKLFNSTWTRNNTTESNETITLPCKIKQIINLWQEVGKAIYAPPISGPIRCSSNITGLLLTRDGGNTSETNKETFRPGGGDMRDNWRSELYKYKVVKIEPLGVAPTKAKRRVVQRERRAVGTFGALFLGFLGTAGSTMGAASITLTVQARQLLSGIVQQQNNLLKAIEAQQHLLQLTVWGIKQLQARVLAVERYLKDQQLLGLWGCSGKLICTTTVPWNASWSNKSLEQIWENMTWMQWEKEIDNYTGIIYSLISESQLQQEKNEKELLELDKWASLWTWFDITNWLWYIRIFIMIVGGLIGLRIVFAVLSIVNRVRKGYSPLSFQTRLPTPRGPDRPEGIEEEGGERGRDTSIRLVDGFLALIWDDLRNLCLFSYHHLRDLILIVVRTVELLGRRGWELLKYWWNLLKYWSQELKKSAVSLFNAAAIAVAEGTDRVIEVVQRAGRGILHVPRRIRQGLERALQ
B3: HIV-1 Env, reservoir clone (protein)
chain: MRVKGIMRNYQHLWRWGIMLLGMLMICNATEKLWVTVYYGVPVWKEATTTLFCASDAKAYDTEAHNVWATHACVPTDPDPQEVVLENVTEDFNAWKNDMVEQMHEDIISLWDQSLKPCVKLTPLCVTLECTDNVNCTGTNCTGVKDTNDTNNANLIMEKGEMKNCSFNITTNIRDKVDRQYALFYKLDIVQIEDNNTNTYRLISCNTSVITQACPKVSFEPIPIHYCAPAGFAILKCKDKGFSGKGTCKNVSTVQCTHGIRPVVSTQLLLNGSLAEKEVVIRSNNLTNNAETIIVQLNKTIQINCTRPNNNTRKGIHIGPGRAFYATGEIIGDIRQAHCNISGKDWNEALKWIAGKLKEKFNKTIVFRPPIRGGDPEIVMHTFNCGGEFFYCNTTKLFNSTHNGNDTHDTAINNTTITLPCKIKQIINMWQEVGKAMYAPPIRGNISCSSNITGLLLIRDGGNTSTNETFRPGGGNMKDNWRSELYKYKVVKIEPLGVAPTKAKRRVVQREKRAMGLGALFLGFLGAAGSTMGAASVTLTVQARQLLSGIVQQQNNLLRAIEAQQHMLQLTVWGIKQLQARVLAVERYLKDQQLLGIWGCSGKLICTTSVPWNTSWSNKSYHQIWENMTWMQWEKEIDNYTGIIYTLIEESQTQQEMNEKELLELDKWASLWNWFSITNWLWYIRIFIMIVGGLIGLRIVFAVLSIVKRVRQGYSPLSFQTLFPAQRGPDRPGGIEEEGGEQDRGRSIRLVDGFLALFWDDLRSLCLFSYHRLRDLLLIVAWIVELLGRRGWEILKYWWSLLQYWSQELKNSAISLLNTTAIIVGEGTDRVIETAQRVVRAFLHIPRRIRQGFERALQ
B4: HIV-1 Env, reservoir clone (protein)
chain: B3 chain with S769N
B5: HIV-1 Env, reservoir clone (protein)
chain: B3 chain with N811K
B6: HIV-1 Env, reservoir clone (protein)
chain: MRVKGIRRNYQHWWRGDIWRWGMMLLGMLMICSATGSLWVTVYYGVPVWKEATTTLFCASDAKAYDTEAHNVWATHACVPTDPNPQEVPLVNVTENFNMWKNNMVEQMHEDIISLWDQSLKPCVKLTPLCVTLHCTEIGTNATNNSSHNPTPTTNSSTSPTPMGEIKNCSFNVTTNRRDKVQKTYAFFYNMDIKQIAEEDNTSYILTSCNTSVITQACPKVSFEPIPIHYCAPAGFAILKCNDTNFNGTGPCKNVTTVQCTHGIKPVVSTQLLLNGSLARGEVMIRSENISNNAKIIIVQLKEPVEINCTRPNNNTRKSITIGPGRAFFGTDIIGDIRQAHCNISREKWNYTLYQISEKLRSHFVNKTIVFNQSSGGDPEIVMHSFNCGGEFFYCDTSKLFNSTWHTNSTANNTGDNSTITIPCRIKQIVNMWQEVGKAMYAPPIKGPIRCSSKITGVLLTRDGGTNNTNTTETFRPAGGDMRDNWRSELYKYKVVQIEPLGIAPTQAKRRVVQRDKRAVGIGALFLGFLGTAGSTMGAASITLTVQARNLLSGIVQQQNNLLRAIEAQQHLLQLTVWGIKQLQARVLAVESYLKDQQLLGIWGCSGKLICTTAVPWNNSWSNKSLDYIWNNMTWMEWEREIDNYTEYIYDLLEASQNQQEKNEQELLALDKWASLWSWFSITQWLWYIKLFLIIVGGLIGLRIVFAVFSIVNRVRQGYSPLSLQTLLPAQRGPDRPEGIEEEGGEQDRGRSIRLVDGFLALFWDDLRSLCLFSYHRLRDLLLIVTRIVELLGRRGWETLKYCWNLLQYWGQELKKSAVSLFNFSAIAVAEGTDRVIEVVQRIWRAIIHIPRRIRQGLEGALL

Key:
antibody 10-1074 [1] = test: neutralization IC50; higher = virus less sensitive to the antibody
Method: (§1)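 Pseudovirus bearing the Env chain mixed with antibody, from 50 µg/ml in fivefold dilutions, on TZM-bl reporter cells, in duplicate.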

antibody 3BNC117 [2] = test: as above
Method: as §1

antibody 10-1074 [3] = test: neutralization IC80; higher = virus less sensitive to the antibody
Method: as §1

antibody 3BNC117 [4] = test: as above
Method: as §1

Binder | neutralization IC50 (antibody 10-1074 [1]) | neutralization IC50 (antibody 3BNC117 [2]) | neutralization IC80 (antibody 10-1074 [3]) | neutralization IC80 (antibody 3BNC117 [4])
B1 | > 50 µg/mL | 0.08 µg/mL | > 50 µg/mL | 0.585 µg/mL
B2 | 0.001 µg/mL | 0.074 µg/mL | 0.006 µg/mL | 0.483 µg/mL
B3 | 0.097 µg/mL | 0.053 µg/mL | 0.372 µg/mL | 0.209 µg/mL
B4 | 0.119 µg/mL | 0.079 µg/mL | 0.419 µg/mL | 0.306 µg/mL
B5 | 0.076 µg/mL | 0.066 µg/mL | 0.306 µg/mL | 0.246 µg/mL
B6 | 0.005 µg/mL | 0.016 µg/mL | 0.016 µg/mL | 0.07 µg/mL
